{"source": "patent US7432045B2", "about": "(priority 2003, dated 2008)", "test_system": "Influenza virus strain PR8", "design": "species or system mice", "settings": "mouse, in vivo"}
{"smiles": "CCCC[C@H](NC(=O)[C@H](CCCNC(=N)N)NC(=O)CN)C(=O)N[C@@H](CCCC)C(=O)N[C@@H](CCCNC(=N)N)C(=O)N[C@@H](CCCNC(=N)N)C(=O)N[C@@H](CCC(N)=O)C(=O)N[C@@H](CCCNC(=N)N)C(=O)N[C@@H](CCCNC(=N)N)C(=O)N[C@@H](CCCNC(=N)N)C(=O)N[C@@H](CS)C(=O)O", "note": "[n50,51TAT-C, NH2-GRnLnLRRQRRRC-COOH]", "values": [{"measurement": "mice protected", "result": 90, "unit": "%"}]}
